Anti-infective test results gathered from many reports (values: NIAID ChemDB through PubChem).

All rows: whole-cell or culture tests; organism: Aspergillus flavus; endpoint: MIC

An empty or dashed field is not shown. Lines come from different laboratories, so protocols vary. Two numbers with a dash give a range or band.

{"smiles": "Cc1nc2c(s1)C(=O)C(Nc1ccc(Br)cc1)=C(Cl)C2=O", "strain": "KCCM 11899", "method": "broth dilution", "value": "12.5 µg/mL"}
{"smiles": "CN1C(=O)/C(=c2/[nH][nH]c(=O)/c2=C\\c2ccc3c(c2)OCO3)C(=O)c2ccccc21", "strain": "ATCC 28542", "value": "50 µg/mL"}
{"smiles": "CC(C)Cc1ccc(CC2=Cc3[nH][nH]c(=O)c3C(c3ccc(Cl)cc3)C2)cc1", "method": "agar diffusion", "value": "50 µg/mL"}
{"smiles": "C[C@H]1[C@H](O)[C@@H](C)/C=C/C=C/C=C/C=C/C=C/C=C/C=C/[C@H](O[C@@H]2O[C@H](C)[C@@H](O)[C@H](N)[C@@H]2O)C[C@@H]2O[C@](O)(C[C@@H](O)C[C@@H](O)CC[C@H](O)[C@@H](O)C[C@@H](O)CC(=O)O[C@H]1C)C[C@H](O)[C@H]2C(=O)O", "strain": "F44", "method": "broth dilution", "value": "2 µg/mL"}
{"smiles": "CCCCCCCCOC(=O)[C@]1(O)C[C@@H](O)[C@@H](O)[C@H](OC(=O)/C=C/c2ccc(O)c(O)c2)C1", "strain": "AMP 9", "value": "500 µg/mL"}
{"smiles": "Nc1ccccc1Cc1nc(CN2CCc3sccc3C2)n[nH]1", "strain": "NCIM 539", "method": "agar", "value": "150 µg/mL"}
{"smiles": "Cn1c(=O)c(-c2[nH][nH]c(=O)c2/C=N/c2cscn2)c(O)c2ccccc21", "strain": "ATCC 28542", "value": "25 µg/mL"}
{"smiles": "O=C(O)c1ccccc1", "value": ">10 µg/mL"}
{"smiles": "Cn1c(=O)c(-c2[nH][nH]c(=O)c2C=Nc2ccccc2)c(O)c2ccccc21", "strain": "ATCC 28542", "value": ">100 µg/mL"}
{"smiles": "Clc1cccc(-c2n[nH]c(CN3CCc4sccc4C3)n2)c1", "strain": "NCIM 539", "method": "agar", "value": "100 µg/mL"}
{"smiles": "Cc1nc2c(s1)C(=O)C(Nc1ccccc1)=C(Cl)C2=O", "strain": "KCCM 11899", "method": "broth dilution", "value": "12.5 µg/mL"}
{"smiles": "c1ccc(Cc2nc(CN3CCc4sccc4C3)n[nH]2)cc1", "strain": "NCIM 539", "method": "agar", "value": ">200 µg/mL"}
{"smiles": "Cn1c(=O)c(-c2[nH][nH]c(=O)c2C=Nc2cccnc2)c(O)c2ccccc21", "strain": "ATCC 28542", "value": "25 µg/mL"}
{"smiles": "c1ccc(N2CCC(n3cc(CN4CCc5sccc5C4)nn3)CC2)cc1", "strain": "NCIM 539", "method": "agar", "value": "60 µg/mL"}
{"smiles": "COC(=O)c1c(N)oc2c1cc(O)c1sc(C)nc12", "strain": "KCCM 11899", "method": "broth dilution", "value": "50 µg/mL"}
{"smiles": "Cn1c(=O)c(-c2[nH][nH]c(=O)c2N=Nc2cccc(Cl)c2)c(O)c2ccccc21", "strain": "ATCC 28542", "value": ">100 µg/mL"}
{"smiles": "Nc1[nH]c(=O)ncc1F", "method": "broth dilution", "value": "6.3 µg/mL"}
{"smiles": "CC(C)Cc1ccc(CC2=Cc3[nH][nH]c(=O)c3C(c3ccc(Br)cc3)C2)cc1", "method": "agar diffusion", "value": "50 µg/mL"}
{"smiles": "Cc1nc2c(s1)C(=O)C(Nc1ccc(F)cc1)=C(Cl)C2=O", "strain": "KCCM 11899", "method": "broth dilution", "value": "1.6 µg/mL"}
{"smiles": "Fc1ccc(Cc2nc(CN3CCc4sccc4C3)n[nH]2)cc1", "strain": "NCIM 539", "method": "agar", "value": "15 µg/mL"}
{"smiles": "CCOC(=O)c1c(N)oc2c1cc(O)c1sc(C)nc12", "strain": "KCCM 11899", "method": "broth dilution", "value": "50 µg/mL"}
{"smiles": "C[C@H]1[C@H](O)[C@@H](C)/C=C/C=C/C=C/C=C/C=C/C=C/C=C/[C@H](O[C@@H]2O[C@H](C)[C@@H](O)[C@H](N)[C@@H]2O)C[C@@H]2O[C@](O)(C[C@@H](O)C[C@@H](O)CC[C@H](O)[C@@H](O)C[C@@H](O)CC(=O)O[C@H]1C)C[C@H](O)[C@H]2C(=O)O", "value": "8 µg/mL"}
{"smiles": "CN1C(=O)/C(=c2/[nH][nH]c(=O)/c2=C\\c2ccc(Cl)cc2)C(=O)c2ccccc21", "strain": "ATCC 28542", "value": ">100 µg/mL"}
{"smiles": "CC1CCC2(OC1)OC1CC3C4CCC5C[C@@H](OC6OC(CO)C(OC7OC(CO)C(O)C(OC8CC(OC9OC(CO)C(O)C(O)C9O)C(O)C(CO)O8)C7OC7OC(CO)C(O)C(O)C7O)C(O)C6O)[C@H](O)C[C@]5(C)C4CC[C@]3(C)C1[C@@H]2C", "method": "broth dilution", "value": "30 µg/mL"}
{"smiles": "CC(C)Cc1ccc(CC2=Cc3[nH][nH]c(=O)c3C(c3ccccc3)C2)cc1", "method": "agar diffusion", "value": "100 µg/mL"}
{"smiles": "C[C@@H](c1ncncc1F)[C@](O)(Cn1cncn1)c1ccc(F)cc1F", "method": "broth dilution", "value": "0.25 µg/mL"}
{"smiles": "C[C@H]1[C@H](O)[C@@H](C)/C=C/C=C/C=C/C=C/C=C/C=C/C=C/[C@H](O[C@@H]2O[C@H](C)[C@@H](O)[C@H](N)[C@@H]2O)C[C@@H]2O[C@](O)(C[C@@H](O)C[C@@H](O)CC[C@H](O)[C@@H](O)C[C@@H](O)CC(=O)O[C@H]1C)C[C@H](O)[C@H]2C(=O)O", "method": "broth dilution / resazurin", "value": "0.98 µg/mL"}
{"smiles": "OC(Cn1cncn1)(Cn1cncn1)c1ccc(F)cc1F", "strain": "KCCM 11899", "value": "0.8 µg/mL"}
{"smiles": "COc1ccc(Cc2nc(CN3CCc4sccc4C3)n[nH]2)cc1", "strain": "NCIM 539", "method": "agar", "value": "37.5 µg/mL"}
{"smiles": "CCC(C)CC(C)CCCCCCCCC(=O)N[C@H]1C[C@@H](O)[C@H](NCCN)NC(=O)[C@@H]2[C@@H](O)CCN2C(=O)[C@H]([C@H](O)CCN)NC(=O)[C@H]([C@H](O)[C@@H](O)c2ccc(O)cc2)NC(=O)[C@@H]2C[C@@H](O)CN2C(=O)[C@H]([C@@H](C)O)NC1=O", "value": "0.09–3.12 µg/mL"}
{"smiles": "Cc1ccc(NC2=C(Cl)C(=O)c3nc(C)sc3C2=O)cc1", "strain": "KCCM 11899", "method": "broth dilution", "value": "12.5 µg/mL"}

The last 4 rows once more:

smiles	strain	method	value
OC(Cn1cncn1)(Cn1cncn1)c1ccc(F)cc1F	KCCM 11899		0.8 µg/mL
COc1ccc(Cc2nc(CN3CCc4sccc4C3)n[nH]2)cc1	NCIM 539	agar	37.5 µg/mL
CCC(C)CC(C)CCCCCCCCC(=O)N[C@H]1C[C@@H](O)[C@H](NCCN)NC(=O)[C@@H]2[C@@H](O)CCN2C(=O)[C@H]([C@H](O)CCN)NC(=O)[C@H]([C@H](O)[C@@H](O)c2ccc(O)cc2)NC(=O)[C@@H]2C[C@@H](O)CN2C(=O)[C@H]([C@@H](C)O)NC1=O			0.09–3.12 µg/mL
Cc1ccc(NC2=C(Cl)C(=O)c3nc(C)sc3C2=O)cc1	KCCM 11899	broth dilution	12.5 µg/mL